B1: IV121 (VHH)
VHH: QVQLQESGGGLVQPGGSLRLSCTASRTDISFNPMAWYRQAPGQQRELVASITSGGTTNYANSVKGRFTISRDNPKNTMYLQMNSLKPEDTAVYYCNGRGPRYTTTGWITDDYWGQGTQVTVSS
B2: IV127 (VHH)
VHH: QVQLQESGGGLVQPGGSLRLSCAASRSGFVFNPMGWYRQAPGKQRELVAVITASLTTNYADSVKGRFTISRDNTGNTAYLQMNSLKPEDTAVYYCYGRGPRKAPTGWITDDYWGQGTQVTVSS
B3: IV134 (VHH)
VHH: QVQLQESGGGLVQAGGSLRLSCAASGSGFSFNPMGWYRQAPGKQRELVASITSGGTTNYVDSVKGRFTISRGNAKNTVYLQMNSLKPEDTAVYYCAAEGPRRRGSTWYTDNYWGQGTQVTVSS
B4: IV135 (VHH)
VHH: QVQLQQSGGGLVQPGGSLRLSCAASRGDISFNPMGWYRQAPGKQRELVATITNGGTTNYADSVKGRFTISRDNAETAVYLQMNSLKPEDTAVYYCNARGPRHATTGWYTDDYWGQGTQVTVSS
B5: IV123 (VHH)
VHH: QVQLQESGGGLVQPGGSLRLSCAASRSGFSFNPMGWYRQAPGKQRELVATITSGGTTNYADSVKGRFTISTDNAKTTVFLQMNSLKPEDTAVYYCNARGPRRGTAGWITDDYWGQGTQVTVSS
B6: IV136 (VHH)
VHH: B5 VHH with F79Y, A97G, G103A, A105T
B7: IV126 (VHH)
VHH: QVQLQESGGGLVQPGGSLRLSCAASRTDISFNPMGWYRQAPGKQRELVATMTSGGTTGYADSVKGRFTISRDNPKNTLYLQMNSLEPEDTAVYYCHARGPRYATTGWFTDDYWGQGTQVTVSS
B8: IV122 (VHH)
VHH: QVQLQQSGGGLVQPGGSLRLSCAASRSDFAFNPMGWYRQAPGKQRELVAVLTTGGTTNYADSVKGRFTISRDNARNTVYLQMNSLKPEDTAVYYCYARGPRKAPTGWITDDYWGQGTQVTVSS
B9: IV132 (VHH)
VHH: QVQLQESGGGLVQPGGSLRLSCAASVSGFIFNPMGWYRQARGKQREEVAVLTTGGTTKYADSVKDRFTISRDNARNTVDLQMNSLKPEDTAVYYCYARGPRHVPTGWITDDYWGQGTQVTVSS
B10: IV131 (VHH)
VHH: B3 VHH with E6Q
B11: IV133 (VHH)
VHH: B5 VHH with E6Q, R26S, I51M, T71R, F79Y, G103A, A105T

Substitutions are numbered along the chain they refer to.

One experiment has as its target authentic influenza antigen H5N9, strain A/Turkey/Wisconsin/68 (influenza A virus A/Turkey/Wisconsin/68 (H5N9)).
Assay: not given
For B1, the Extinction at 450 nm in ELISA (extinction at 450 nm) amounted to 0.099. B2 came in with an Extinction at 450 nm in ELISA (extinction at 450 nm) of 0.443.

As to B3, the Extinction at 450 nm in ELISA (extinction at 450 nm) is 0.194.

In turn, B4 yielded an Extinction at 450 nm in ELISA (extinction at 450 nm) of 0.169. The molecule B5 gave an Extinction at 450 nm in ELISA (extinction at 450 nm) of 0.188. Same read-out and setting: with B6 the figure was 0.372; with B7, 0.33; with B8, 0.129. Regarding B9, the Extinction at 450 nm in ELISA (extinction at 450 nm) is 0.113.

In another experiment the target is authentic AIV antigen / virus of influenza strain A/Turkey/Wisconsin/68 (H5N9) (influenza A virus A/Turkey/Wisconsin/68 (H5N9)).
Assay: not given
In turn, B10 returned an ELISA titer (NANOBODY concentration giving extinction 0.2) of 19.5 ng/mL. The same measure, in the same setting: to B11 belongs 29.4 ng/mL.

A further experiment has the same target. The experiment in a line: cell-based or functional assay.
In turn, B10 yielded an HI titer greater than 1000 µg/mL and a VNT titer greater than 50 µg/mL. In the same order, the values of B11 are greater than 1000 µg/mL and greater than 50 µg/mL.

Values taken from patent publication US20200123233A1.
